Pooled drug test results. Numbers come from NIAID ChemDB, via PubChem.

Common to all: whole-cell or culture tests; agent: Hepatitis B virus; measure: EC50

ECn: concentration that inhibits the pathogen or its effect by n%.

compound,method,strain or isolate,setting,cell line,value
Cc1cc(Cl)ccc1C(=O)N1CCS(=O)(=O)[C@@H](c2cccs2)C1,PCR,,,HepG2.117,0.5–5 µM
CNC(=O)C(=O)N1CCC(NS(=O)(=O)c2cn(C)c(C(=O)Nc3cc(F)cc(Cl)c3)c2F)CC1,PCR,,,HepAD38 cells,<0.1 µM
C#CC1(NC(=O)C(=O)c2c(C)c(C(=O)Nc3ccc(F)c(C(F)F)c3)n(C)c2Cl)CC(F)(F)C1,PCR,,,HepG2.2.15,0.001–0.0099 µM
CCOC(=O)C1=C(CN2CC(F)(F)[C@@H]3[C@H]2CON3C[C@H](OC)C(C)(C)C(=O)O)NC(c2nccs2)=N[C@H]1c1cccc(F)c1Cl,PCR,,,HepG2.2.15,0.005 µM
C[C@H]1Cc2c(n3ncc(Cc4ccccc4)c3n(-c3ccc(-c4noc(=O)n4C)cc3)c2=O)CN1C(=O)c1ccc(Br)c(C(F)(F)F)c1,luminescence,,,HepG2.117,0.05–0.5 µM
Cc1oncc1S(=O)(=O)Nc1ccc2c(C(=O)Nc3ccc(F)c(Cl)c3)n(C)nc2c1,PCR,,,HepAD38,>1000 µM
C[C@H]1Cn2c(c(C(=O)NCc3ccccc3-n3cncn3)n(-c3ccc(OC4CC4)cc3)c2=O)CN1C(=O)c1ccc(Br)c(Cl)c1,PCR,,,HepG2.117,<0.1 µM
CCOC(=O)C1=C(CN2CC(F)(F)[C@@H]3[C@H]2CON3CC[C@@](C)(O)C(=O)O)NC(c2nccs2)=N[C@H]1c1ccc(F)c(F)c1C,PCR,,,HepG2.2.15,0.054 µM
C=C[C@](C)(NC(=O)C(=O)c1c(C)c(C(=O)Nc2ccc(F)c(C#N)c2)n(C)c1C)C(F)(F)F,PCR,,,HepG2.2.15,0.001–0.0099 µM
Cn1nc2cc(NS(=O)(=O)N3CC[C@@H](O)C3)ccc2c1C(=O)Nc1ccc(F)c(Cl)c1,PCR,,,HepAD38,100–1000 µM
COC(=O)C1=C(CN2CC(F)(F)[C@H]3[C@@H]2CCN3C[C@@](C)(O)C(=O)O)NC(c2nccs2)=N[C@H]1c1cccc(F)c1F,PCR,,,HepG2.2.15,0.034 µM
CNS(=O)(=O)N1CC[C@@H](NS(=O)(=O)c2cn(C)c(C(=O)Nc3ccc(F)c(Cl)c3F)c2F)C1,PCR,,,HepAD38 cells,<0.1 µM
CCOC(=O)C1=C(CN2CC(F)(F)[C@@H]3[C@H]2CON3C[C@H](O)C(C)(C)C(=O)O)NC(c2nccs2)=N[C@H]1c1ccc(F)c(F)c1Cl,PCR,,,HepG2.2.15,0.013 µM
COc1ccc(-n2c(C(=O)N[C@H](C)c3ccccc3)c3n(c2=O)CCN(C(=O)c2ccc(Br)c(Cl)c2)C3)cn1,PCR,,,HepG2.117,0.1–0.5 µM
Cn1nc2cc(NS(=O)(=O)c3cnn(C4CN(C(=O)OC(C)(C)C)C4)c3)ccc2c1C(=O)Nc1ccc(F)c(Cl)c1,PCR,,,HepAD38,100–1000 µM
NC(=O)c1ccc(-n2c(=O)c3c(n4ncc(NCc5ccccc5)c24)CN(C(=O)c2ccc(Br)c(Cl)c2)CC3)cc1,PCR,,3 d,HepG2.117,<0.1 µM
CNC(=O)c1ccc(-n2c(=O)c3c(n4ncc(CC5CCC5)c24)CN(C(=O)c2ccc(Br)c(C(F)(F)F)c2)[C@H](C)C3)cc1,luminescence,,,HepG2.117,≤0.05 µM
Cn1nc2cc(NS(=O)(=O)NCCO)ccc2c1C(=O)Nc1ccc(F)c(Cl)c1,PCR,,,HepAD38,<100 µM
CNc1nsc2cc(-n3c(=O)c4c(n5ncc(Cc6ccccc6)c35)CN(C(=O)c3ccc(Br)c(Cl)c3)CC4)ccc12,luminescence,,,HepG2.117,≤0.05 µM
C[C@@H](NS(=O)(=O)Nc1ccc2c(C(=O)Nc3ccc(F)c(Cl)c3)n(C)nc2c1)c1ccccc1,PCR,,,HepAD38,100–1000 µM
CC#CC1(NC(=O)C(=O)c2c(C)c(C(=O)Nc3ccc(F)c(C#N)c3)n(C)c2C)COC1,PCR,,,HepG2.2.15,<0.001 µM
CNS(=O)(=O)NC1CCN(S(=O)(=O)c2cn(C)c(C(=O)Nc3cc(F)c(F)c(F)c3)c2F)CC1,PCR,,,HepAD38 cells,0.3–1 µM
C#C[C@@H](CO)NC(=O)C(=O)c1c(C)c(C(=O)Nc2ccc(F)c(C#N)c2)n(C)c1C,PCR,,,HepG2.2.15,0.001–0.0099 µM
O=C(NCc1ccccc1)C1CN(C(=O)c2ccc(Br)c(Cl)c2)CCS1(=O)=O,PCR,,,HepG2.117,0.1–0.5 µM
CCC[C@H]1Cc2c(n3ncc(Cc4ccccc4)c3n(-c3ccc4c(NC)n[nH]c4c3)c2=O)CN1C(=O)c1ccc(Br)c(C(F)(F)F)c1,luminescence,,,HepG2.117,≤0.05 µM
CNC(=O)c1ccc(-n2c(=O)c3c(n4ncc(Cc5ccc(C#N)cc5)c24)CN(C(=O)c2ccc(Br)c(Cl)c2)CC3)cc1,PCR,,3 d,HepG2.117,<0.1 µM
CCOC(=O)C1=C(CN2CC(F)(F)[C@H]3[C@@H]2CCN3C[C@@H](O)C(C)(C)C(=O)O)NC(c2nccs2)=N[C@@H]1c1cccc(F)c1F,PCR,,,HepG2.2.15,0.11 µM
COc1ccc(CN2CCCCn3c(c4n(c3=O)CCN(C(=O)c3ccc(Br)c(Cl)c3)C4)C2=O)cc1,PCR,,,HepG2.117,0.5–5 µM
C[C@H]1Cc2c(n3ncc(Cc4ccccc4)c3n(-c3ccc(-c4nn[nH]n4)cc3)c2=O)CN1C(=O)c1ccc(Br)c(C(F)(F)F)c1,luminescence,,,HepG2.117,>5 µM
Cn1nc2cc(C(=O)Nc3cnn(-c4ccccn4)c3)ccc2c1C(=O)Nc1ccc(F)c(Cl)c1,PCR,,,HepAD38,100–1000 µM
CNC(=O)c1cnc(-n2c(=O)c3c(n4ncc(CC(C)C)c24)CN(C(=O)c2ccc(Br)c(C(F)(F)F)c2)[C@H](C)C3)cn1,luminescence,,,HepG2.117,≤0.05 µM
Cn1nc2cc(NS(=O)(=O)N3CCOC3=O)ccc2c1C(=O)Nc1ccc(F)c(Cl)c1,PCR,,,HepAD38,100–1000 µM
CC1Cc2c(n3ncc(Cc4ccccc4)c3n(-c3ccc(-n4nnnc4C(F)(F)F)cc3)c2=O)CN1C(=O)c1ccc(Br)c(C(F)(F)F)c1,luminescence,,,HepG2.117,0.05–0.5 µM
CCn1cc(S(=O)(=O)N[C@@H]2CCCN(S(=O)(=O)NC)C2)c(F)c1C(=O)Nc1ccc(F)c(F)c1,PCR,,,HepAD38 cells,<0.1 µM
CCOC(=O)C1=C(CN2CC(F)(F)[C@@H]3[C@H]2CON3C[C@H](OC)C(C)(C)C(=O)O)NC(c2nccs2)=N[C@H]1c1ccc(F)c(F)c1F,PCR,,,HepG2.2.15,0.058 µM
C#CC1(N(COC(=O)[C@@H](N)C(C)C)C(=O)C(=O)c2c(C)c(C(=O)Nc3ccc(F)c(C#N)c3)n(C)c2C)COC1,PCR,,,HepG2.2.15,0.001–0.0099 µM
C[C@H]1Cn2c(c(C(=O)NCc3ccccc3-c3ncccn3)n(-c3ccc(OC4CC4)cc3)c2=O)CN1C(=O)c1ccc(Br)c(C#N)c1,PCR,,,HepG2.117,<0.1 µM
CC(C)Cc1cnn2c3c(c(=O)n(-c4ccc5c(c4)nnn5C)c12)C[C@@H](C)N(C(=O)c1ccc(Br)c(C(F)(F)F)c1)C3,luminescence,,,HepG2.117,≤0.05 µM
COc1ccc(-n2c(=O)c3c(n4ncc(NS(=O)(=O)Cc5ccccc5)c24)CN(C(=O)c2ccc(Br)c(Cl)c2)CC3)cc1,PCR,,3 d,HepG2.117,0.5–5 µM
C[C@H]1Cc2c(n3ncc(CC4CCC4)c3n(-c3ccc(-c4nncn4C)cc3)c2=O)CN1C(=O)c1ccc(Br)c(C(F)(F)F)c1,luminescence,,,HepG2.117,0.05–0.5 µM
COc1ccc(-n2c(C(=O)NCc3cccc4cccnc34)c3n(c2=O)CCN(C(=O)c2ccc(Br)c(Cl)c2)C3)cc1,PCR,,,HepG2.117,0.1–0.5 µM
Cn1nc2cc(N(CCO)S(=O)(=O)c3cnn(-c4cc(N5CCOCC5)ccn4)c3)ccc2c1C(=O)Nc1ccc(F)c(Cl)c1,PCR,,,HepAD38,<100 µM
COC(=O)C1=C(CN2CC(F)(F)[C@@H]3[C@H]2CON3C[C@H](OC)C(C)(C)C(=O)O)NC(c2nccs2)=N[C@H]1c1ccc(F)c(F)c1C,PCR,,,HepG2.2.15,0.003 µM
C=C1[C@H](CO)[C@@H](O)C[C@@H]1n1cnc2c(=O)[nH]c(N)nc21,ELISA,Genotype D,,HepG2-NTCP,>0.1 µM
C[C@@H](c1cnc([C@]2(F)CN(C(=O)c3ccc(Br)c(Cl)c3)CCS2(=O)=O)s1)c1ccccc1F,PCR,,,HepG2.117,>5 µM
CCOC(=O)C1=C(CN2CC(F)(F)[C@@H]3[C@H]2CON3C[C@@H](F)C(C)(C)C(=O)O)NC(c2nc(C)cs2)=N[C@H]1c1cccc(F)c1C,PCR,,,HepG2.2.15,0.008 µM
C[C@H](NC(=O)c1c2n(c(=O)n1-c1ccc(OC3CC3)cc1)CCN(C(=O)c1ccc(Br)c(Cl)c1)C2)c1ccc(OC2COC2)cc1F,PCR,,,HepG2.117,0.1–0.5 µM
C#C[C@@H](NC(=O)C(=O)c1c(C)c(C(=O)Nc2ccc(F)c(C#N)c2)n(C)c1C)C1CC1,PCR,,,HepG2.2.15,<0.001 µM
O=C(c1ccc(Br)c(Cl)c1)N1CCc2c(n3ncc(Cc4ccccc4)c3n(-c3ccc(-c4ncc[nH]4)cc3)c2=O)C1,PCR,,3 d,HepG2.117,0.5–5 µM
COc1ccc(CNC(=O)c2c3n(c(=O)n2-c2ccc(OCC(F)(F)F)cc2)CCN(C(=O)c2ccc(Br)c(Cl)c2)C3)c(OC(F)F)c1,PCR,,,HepG2.117,0.1–0.5 µM
O=C(c1cc(F)cc(Cl)c1)N1CCS(=O)(=O)[C@@H](c2cccs2)C1,PCR,,,HepG2.117,0.5–5 µM
O=C(NC1(c2ccccc2)CC1)c1c2n(c(=O)n1-c1ccccc1)CCN(C(=O)c1ccc(Br)c(Cl)c1)C2,PCR,,,HepG2.117,>5 µM
Cn1nc2cc(NS(=O)(=O)NCc3ccccc3)ccc2c1C(=O)Nc1ccc(F)c(Cl)c1,PCR,,,HepAD38,<100 µM

Repeating the first 5 entries:

compound,method,strain or isolate,setting,cell line,value
Cc1cc(Cl)ccc1C(=O)N1CCS(=O)(=O)[C@@H](c2cccs2)C1,PCR,,,HepG2.117,0.5–5 µM
CNC(=O)C(=O)N1CCC(NS(=O)(=O)c2cn(C)c(C(=O)Nc3cc(F)cc(Cl)c3)c2F)CC1,PCR,,,HepAD38 cells,<0.1 µM
C#CC1(NC(=O)C(=O)c2c(C)c(C(=O)Nc3ccc(F)c(C(F)F)c3)n(C)c2Cl)CC(F)(F)C1,PCR,,,HepG2.2.15,0.001–0.0099 µM
CCOC(=O)C1=C(CN2CC(F)(F)[C@@H]3[C@H]2CON3C[C@H](OC)C(C)(C)C(=O)O)NC(c2nccs2)=N[C@H]1c1cccc(F)c1Cl,PCR,,,HepG2.2.15,0.005 µM
C[C@H]1Cc2c(n3ncc(Cc4ccccc4)c3n(-c3ccc(-c4noc(=O)n4C)cc3)c2=O)CN1C(=O)c1ccc(Br)c(C(F)(F)F)c1,luminescence,,,HepG2.117,0.05–0.5 µM

Two numbers with a dash give a range or band. Lines come from different laboratories, so protocols vary. An empty or dashed field is not shown.